Anti-infective test results gathered from many reports (values: NIAID ChemDB through PubChem).

Shared fields: host cell toxicity; cell line: CEM; endpoint: CC50

An empty or dashed field is not shown. Conditions beyond the fields shown may differ between rows. CCn: concentration that lowers growth or viability of the cells by n%.

smiles,read by,value
Cc1cc(C(F)(F)F)cc(-n2nc(NS(=O)(=O)c3cc(C)c(Cl)cc3S)nc2N)n1,,149 µM
Cc1cn([C@@H]2O[C@H](CO[Si](C)(C)C(C)(C)C)[C@@H](O)[C@H]2O[Si](C)(C)C(C)(C)C)c(=O)n(CCO)c1=O,,75 µM
CC(C)c1ccc(C(c2ccc(OCC(=O)O)cc2)c2ccc(C(C)C)cc(=O)c2O)c(O)c(=O)c1,,>11.7 µM
Cc1cc(S(=O)(=O)NC2=NCCCN2)c(S)cc1Cl,,103 µM
Cc1cn([C@H]2C=C[C@@H](CO)O2)c(=O)[nH]c1=O,,>50 µM
Cc1cccc2c1OP(=O)(OCCOCn1cnc3c(=O)[nH]c(N)nc31)OC2,,108 µM
Cc1cc(C2(c3cc(C)c(O)c(CN(CC(=O)O)CC(=O)O)c3)OS(=O)(=O)c3ccccc32)cc(CN(CC(=O)O)CC(=O)O)c1O,,>100 µM
CC(C)(C)OC(=O)N[C@@H](Cc1ccccc1)[C@H](O)CNC[C@@H](O)[C@H](Cc1ccccc1)NC(=O)OC(C)(C)CNC=O,,>10 µM
N#CC(C#N)=Cc1cc(O)c(O)c(O)c1,,31.8 µM
[N-]=[N+]=N[C@H]1C[C@H](n2cc(/C(Br)=C\I)c(=O)[nH]c2=O)O[C@@H]1CO,,30.6 µM
NCC(O)c1ccc(O)c(O)c1,cell count,>100 µg/mL
Nc1ccn([C@@H]2CC[C@H](CO)O2)c(=O)n1,,58 µM
N#C/C(=C\c1cc(O)c(O)c(I)c1)C(=O)NCCCc1ccccc1,,9.6 µM
c1ccc(C2OCc3nc4ccccc4n32)cc1,,13 µM
CCCCCCCCCCCCCCCCOP(=O)([O-])OCC[N+](C)(C)Cc1ccccc1,MTT,13.8 µM
COC(=O)CSc1cc(Cl)c(C)cc1S(=O)(=O)Nc1n[nH]c(N)n1,,>200 µM
CC(C)(C)OC(=O)N[C@@H](Cc1ccccc1)[C@H](O)CNC[C@@H](O)[C@@H](N)Cc1ccccc1,,>10 µM
N#C/C(=C\c1ccc(O)c(O)c1)C(=O)NCN1CCN(C(=O)/C(C#N)=C/c2ccc(O)c(O)c2)CC1,,16.8 µM
CCCCCCCCCCCCCCCC[N+](C)(C)Cc1ccccc1,MTT,0.9 µM
CCCCCCCCCCCCCC(=O)OC[C@@H](COP(=O)(O)OC[C@@H]1CC[C@H](n2ccc(N)nc2=O)O1)OC(=O)CCCCCCCCCCCCC,,>71.4 µM
CCOC(=O)c1ccc(O)c(O)c1,cell count,>100 µg/mL
O=c1[nH]c(=O)n([C@H]2C[C@H](F)[C@@H](CO)O2)cc1/C(I)=C/I,,100 µM
Cc1ccnc2c1NC(=O)c1cccnc1N2C1CC1,MTT,>10 µM
O=c1ccn([C@@H]2O[C@@H](CO)[C@H](O)[C@H]2O)c(=O)[nH]1,,>1000 µM
Cc1cc(S(=O)(=O)Nc2nnc3c4ccccc4ccn23)c(S)cc1Cl,,200 µM
Cc1cn([C@H]2C=C[C@@H](CO)O2)c(=O)[nH]c1=O,,>30 µM
CC(C)(C)OC(=O)N[C@@H](Cc1ccccc1)[C@H](O)CNC[C@@H](O)[C@H](Cc1ccccc1)NC(=O)OC1(CO)CCC1,,>10 µM
Cc1cn([C@H]2C=C[C@@H](CO)O2)c(=O)[nH]c1=O,,>10 µM
Cc1ccc2c(c1)COP(=O)(OCCOCn1cnc3c(=O)[nH]c(N)nc31)O2,,111 µM
Nc1ncn([C@@H]2O[C@H](CO)[C@@H](O)[C@H]2O)c(=O)n1,,>1 µM
O=c1[nH]c(=O)n([C@H]2C[C@H](O)[C@@H](CO)O2)cc1C12B3B4B5B6B(B3B1B42)B1B5C61,,>100 µM
COC(=O)CCn1c(=O)c(C)cn([C@@H]2O[C@H](CO[Si](C)(C)C(C)(C)C)[C@@H](O)[C@H]2O[Si](C)(C)C(C)(C)C)c1=O,,19 µM
Nc1nc2c(ncn2C2CC=C[C@H]2CO)c(=O)[nH]1,,>100 µM
[N-]=[N+]=N[C@H]1C[C@H](n2cc(C#CI)c(=O)[nH]c2=O)O[C@@H]1CO,,31.6 µM
N#C/C(=C\c1ccc(O)c(O)c1)C(=O)NCCc1ccc(O)c(O)c1,,29.8 µM
CC(C)(C)CC(C)(C)c1ccc(OCCOP(=O)([O-])OCC[N+](C)(C)Cc2ccccc2)cc1,MTT,>100 µM
Cc1cc(NCc2ccccc2)cc(=O)o1,MTT,148 µM
CCCCCCCCCCCCCCCOP(=O)(OCc1ccc(OC(=O)CCCC)cc1)OP(=O)(O)OP(=O)(O)OC[C@@H]1C=C[C@H](n2cc(C)c(=O)[nH]c2=O)O1,,22 µM
Cc1cn([C@H]2C=C[C@@H](CO)O2)c(=O)[nH]c1=O,MTT,184 µM
Cc1cn([C@H]2C=C[C@@H](CO)O2)c(=O)[nH]c1=O,,60 µM
Nc1nc(NC2CC2)c2ncn([C@H]3C=C[C@@H](COP4(=O)OCc5ccccc5O4)C3)c2n1,,110 µM
C=C1c2cccc(O)c2C(O)=C2C(=O)[C@]3(O)C(O)=C(C(N)=O)C(=O)[C@@H](N(C)C)[C@@H]3[C@@H](O)[C@H]12,,>10 µg/mL
Cn1cc(C(=O)O)c(=O)c2cc(F)c(N3CC=C(c4ccccc4)CC3)c(C(F)(F)F)c21,,3 µM
Cc1cc(NCc2cccc3ccccc23)c(C(=O)C(Cl)Cl)c(=O)o1,MTT,5.4 µM
O=c1[nH]cnc2c1ncn2[C@@H]1O[C@@H](CO)C=C1F,,>100 µM
Cc1cn([C@H]2C[C@H](N=[N+]=[N-])[C@@H](COP(=O)(Nc3cc(C(=O)Nc4cc(C(=O)Nc5cc(C(=O)NCCC#N)n(C)c5)n(C)c4)n(C)c3)OC3CCCCC3)O2)c(=O)[nH]c1=O,MTT,121 µM
Nc1nc2c(ncn2[C@H]2C[C@@H](O)[C@H](CO)O2)c(=O)[nH]1,,>500 µM
CN(C)C1C(=O)C(C(=O)NCNCCC(=O)O)=C(O)C2(O)C(=O)C3=C(O)c4c(O)cccc4C(C)(O)C3CC12,,>111 µM
Nc1nc2c(ncn2[C@@H]2O[C@@H](CO)[C@H](O)[C@H]2O)c(=O)[nH]1,,>100 µM
Cc1cc(S(=O)(=O)Nc2nnc3ccc4ccccc4n23)c(S)cc1Cl,,30.8 µM
COC(=O)[C@@H](C)NP(=O)(OC[C@@H]1C=C[C@H](n2cc(C)c(=O)[nH]c2=O)O1)Oc1ccccc1,,>250 µM
CC(C)(C)OC(=O)N[C@@H](Cc1ccccc1)[C@H](O)CNC[C@@H](O)[C@H](Cc1ccccc1)NC(=O)OC(C)(CO)CO,,>10 µM
Cc1cc(NCc2ccccc2)c(C(=O)C(Cl)Cl)c(=O)o1,MTT,4.9 µM
Cc1cn([C@H]2C=C[C@@H](COP(=O)(Nc3cc(C(=O)Nc4cc(C(=O)NCCC(=N)N)n(C)c4)n(C)c3)OC(C)C)O2)c(=O)[nH]c1=O,MTT,>200 µM
CCc1c(Cc2cc(C)cc(C)c2)n(COC/C=C/c2ccc(OP(=O)(OCCSC(=O)C(C)(C)C)OC[C@@H]3C=C[C@H](n4cc(C)c(=O)[nH]c4=O)O3)cc2)c(=O)[nH]c1=O,,32 µM
Nc1nc(=O)n([C@@H]2CS[C@H](CO)O2)cc1F,,14.3 µM
Cc1cc(S(=O)(=O)Nc2n[nH]c(-c3ccccn3)n2)c(S)cc1Cl,,4.3 µM
Nc1nc(Cl)nc2c1ncn2[C@H]1CC[C@@H](CO)O1,,3 µM
C[C@H]1c2cccc(O)c2C(O)=C2C(=O)[C@]3(O)C(O)=C(C(N)=O)C(=O)[C@@H](N(C)C)[C@@H]3[C@@H](O)[C@@H]21,,>3.3 µg/mL
Nc1nc2c(ncn2COCCO)c(=O)[nH]1,,1020 µM
COC(=O)[C@H](C)NP(=O)(OC[C@@H]1C=C[C@H](n2cc(C)c(=O)[nH]c2=O)O1)Oc1ccccc1,,>10 µM
CC(O)C(NCNC(=O)C1=C(O)C2(O)C(=O)C3=C(O)c4c(O)cccc4C(C)(O)C3CC2C(N(C)C)C1=O)C(=O)O,,>37 µM
N#C/C(=C\c1cc(O)c(O)c(O)c1)C(=O)NCCCCCNC(=O)/C(C#N)=C/c1cc(O)c(O)c(O)c1,,38.3 µM
CC(C)=CCN1Cc2c(F)ccc3[nH]c(=S)n(c23)C[C@@H]1C,,>81.9 µM
Cc1cn([C@@H]2O[C@H](CO[Si](C)(C)C(C)(C)C)[C@@H](O[Si](C)(C)C(C)(C)C)[C@H]2O)c(=O)n(CCO)c1=O,,68 µM
COC(=O)c1cc(O)c(O)c(O)c1,cell count,83 µg/mL
O=c1[nH]c(=O)n([C@H]2C[C@H](F)[C@@H](CO)O2)cc1C#CI,,15.1 µM
Cc1cn([C@H]2C[C@H](N=[N+]=[N-])[C@@H](CO)O2)c(=O)[nH]c1=O,,>100 µM
Cc1cn([C@H]2C[C@H](N=[N+]=[N-])[C@@H](CO)O2)c(=O)[nH]c1=O,,8 µM
Cc1ccc2nnc(NS(=O)(=O)c3cc(C)c(Cl)cc3S)n2n1,,>200 µM
CCCCCCCCCCCCCCCCOP(=O)([O-])OCC[n+]1ccccc1,MTT,22.9 µM
CO[C@H]1/C=C/O[C@@]2(C)Oc3c(C)c(O)c4c(O)c(c(/C=N/N5C(C)CN(Cc6ccc([N+](=O)[O-])cc6)CC5C)c(O)c4c3C2=O)NC(=O)/C(C)=C\C=C\[C@H](C)[C@H](O)[C@@H](C)[C@@H](O)[C@@H](C)[C@H](OC(C)=O)[C@@H]1C,,>7.7 µM
CN[C@@H]1[C@H](O[C@@H]2OC[C@@H](O)[C@H](O)[C@H]2O)[C@@H](O)[C@H](O[C@H]2c3cc(C)c(C(=O)N[C@H](C)C(=O)O)c(O)c3-c3c(cc4c(c3O)C(=O)c3cc(OC)cc(O)c3C4=O)[C@@H]2O)O[C@@H]1C,,>50 µg/mL
Nc1nc2c(ncn2[C@H]2C=C[C@@H](CO)C2)c(=O)[nH]1,,190 µM
Cc1cn([C@H]2C=C[C@@H](CO)O2)c(=O)[nH]c1=O,,>100 µM
Nc1ncnc2c1ncn2[C@@H]1O[C@@H](CO)C=C1F,,>100 µM
O/N=C1\C(=C\c2ccc3c(c2)OCO3)CCCC1C(NO)c1ccc2c(c1)OCO2,,>127 µM
N#C/C(=C\c1cc(O)c(O)c(O)c1)C(=O)NCCCCNC(=O)/C(C#N)=C/c1cc(O)c(O)c(O)c1,,49.8 µM
Cc1cn([C@H]2C=C[C@@H](CO)O2)c(=O)[nH]c1=O,,90 µM
CCc1c(Cc2cc(C)cc(C)c2)n(COCc2ccc(OP(=O)(OCCSC(=O)C(C)(C)C)OC[C@@H]3C=C[C@H](n4cc(C)c(=O)[nH]c4=O)O3)cc2)c(=O)[nH]c1=O,,32 µM
CN(C)[C@@H]1C(=O)C(C(N)=O)=C(O)[C@@]2(O)C(=O)C3=C(O)c4c(O)ccc(Cl)c4[C@@](C)(O)C3C[C@@H]12,,>10 µg/mL
COc1cccc2c1C(=O)c1c(O)c3c(c(O)c1C2=O)C[C@@](O)(C(=O)CO)C[C@@H]3O[C@H]1C[C@H](N(C)C)[C@H](O)[C@H](C)O1,,>0.2 µM
Cn1cc(NC(=O)c2cc(NC(=O)c3cc([N+](=O)[O-])cn3C)cn2C)cc1C(=O)NCCC#N,MTT,145 µM
Nc1nc(=O)n([C@@H]2CS[C@H](CO)O2)cc1F,,>100 µM
Cc1cn([C@H]2C[C@@H](O)[C@H](CO)O2)c(=O)[nH]c1=O,,>1000 µM
CC1=NN(c2nc(N)nc(C(C)Sc3cc(Cl)c(C)cc3S(N)(=O)=O)n2)C(C)(C)C1,,43.1 µM
CN(C)[C@@H]1C(=O)C(C(=O)NCNc2nc3n[nH]nc3c(=O)[nH]2)=C(O)[C@@]2(O)C(=O)C3=C(O)c4c(O)cccc4[C@@](C)(O)[C@H]3C[C@@H]12,,>100 µM

The last 11 rows once more:

smiles,read by,value
O/N=C1\C(=C\c2ccc3c(c2)OCO3)CCCC1C(NO)c1ccc2c(c1)OCO2,,>127 µM
N#C/C(=C\c1cc(O)c(O)c(O)c1)C(=O)NCCCCNC(=O)/C(C#N)=C/c1cc(O)c(O)c(O)c1,,49.8 µM
Cc1cn([C@H]2C=C[C@@H](CO)O2)c(=O)[nH]c1=O,,90 µM
CCc1c(Cc2cc(C)cc(C)c2)n(COCc2ccc(OP(=O)(OCCSC(=O)C(C)(C)C)OC[C@@H]3C=C[C@H](n4cc(C)c(=O)[nH]c4=O)O3)cc2)c(=O)[nH]c1=O,,32 µM
CN(C)[C@@H]1C(=O)C(C(N)=O)=C(O)[C@@]2(O)C(=O)C3=C(O)c4c(O)ccc(Cl)c4[C@@](C)(O)C3C[C@@H]12,,>10 µg/mL
COc1cccc2c1C(=O)c1c(O)c3c(c(O)c1C2=O)C[C@@](O)(C(=O)CO)C[C@@H]3O[C@H]1C[C@H](N(C)C)[C@H](O)[C@H](C)O1,,>0.2 µM
Cn1cc(NC(=O)c2cc(NC(=O)c3cc([N+](=O)[O-])cn3C)cn2C)cc1C(=O)NCCC#N,MTT,145 µM
Nc1nc(=O)n([C@@H]2CS[C@H](CO)O2)cc1F,,>100 µM
Cc1cn([C@H]2C[C@@H](O)[C@H](CO)O2)c(=O)[nH]c1=O,,>1000 µM
CC1=NN(c2nc(N)nc(C(C)Sc3cc(Cl)c(C)cc3S(N)(=O)=O)n2)C(C)(C)C1,,43.1 µM
CN(C)[C@@H]1C(=O)C(C(=O)NCNc2nc3n[nH]nc3c(=O)[nH]2)=C(O)[C@@]2(O)C(=O)C3=C(O)c4c(O)cccc4[C@@](C)(O)[C@H]3C[C@@H]12,,>100 µM